How the values were obtained:
[1] = target: T1, L. drancourtii LeSH4 SH2 domain (Ser3-Asp170) (Legionella drancourtii); assay: FP
T1 chain: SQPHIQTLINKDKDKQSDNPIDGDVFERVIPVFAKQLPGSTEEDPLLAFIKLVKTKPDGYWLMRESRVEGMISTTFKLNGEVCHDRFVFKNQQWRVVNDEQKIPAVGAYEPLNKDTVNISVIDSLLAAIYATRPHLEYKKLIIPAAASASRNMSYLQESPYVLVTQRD

[2] = target: Shc1-pTyr317; assay: FP

B1: pThr-containing version of GGpYGG (peptide)
peptide: GGTGG
B1 was tested, and the Kd [1] was over 50 µM.

B2: m17 (domain or fragment)
chain: SQPHIQTLINKDKDKQSDNPIDGDVFERVIPVFAKQLPGSTEEDPLLAFIKLVKTKPDGYWLMRESRVEGMISTTFKLNGEVCHDRFVFKNQQWRVVNDEQKIPAVGAYEPLNKDTVNISVIDSLLAAIYATRPHLEYKKLIIPAAASASRNMSYLQESPYVLVTQRD
B2 showed a Kd [2] of 1.58 µM.

B3: IL2Rβ pTyr387 peptide (fluorescein-labelled) (peptide)
chain: YFTYDPYSEEDPD
Binder B3 has a Kd [1] of 2 µM.
